Experimental data from patent US20110217202A1, “ACTIVE OXYGEN DISINFECTION SYSTEM AND USE THEREOF” (priority 2010, published 2011).

Experiments:
[1] = Uptake of photosensitizers by contact lenses (Example 3); conditions: 10 μg/mL photosensitizer, lenses submerged overnight
[2] = as above; conditions: 10 μg/mL photosensitizer, lenses submerged overnight; remark: listed apart in the source
[3] = UV spectrometry against blank lens

## CN(C)c1ccc2nc3ccc(=[N+](C)C)cc-3sc2c1 [MB, Methylene Blue]
[1]
  Visual (color change of the lens): invisible
[1]; [3]
  UV/Vis (uptake by lens): 0.4 µg
[2]
  Visual (color change of the lens): Highly visible
[2]; [3]
  UV/Vis (uptake by lens): 4.65 µg
